Patent US7030150B2, “Benzimidazole compounds and antiviral uses thereof” (Trimeris, Inc., priority 2001, dated 2006)

The molecules below were run on RSV (assay: RSV plaque reduction (PRA) / syncytia formation antiviral assay in Hep2 cells). Settings: ratio CC50/IC50, Tables 1-7.
Format: cell-based, Respiratory Syncytial Virus

| Compound | Selective Index |
| --- | --- |
| ClCc1nc2ccccc2n1Cc1nc2ccccc2[nH]1 [compound 1] | 9.69 |
| Cc1nc(Cn2c(CN(C(C)C)C3CCCCC3)nc3ccccc32)cs1 [compound 2] | 21.93 |
| COc1cc(Cn2c(CN(C(C)C)C3CCCCC3)nc3ccccc32)cc(OC)c1 [compound 3] | 10.96 |
| O=C(O)c1ccc2[nH]c(CCl)nc2c1 [compound 4] | 8 |
| COC(=O)c1ccc2[nH]c(CCl)nc2c1 [compound 5] | 11.88 |
| COC(=O)c1ccc2[nH]c(CNN3CCOCC3)nc2c1 [compound 6] | 16.67 |
| CC(C)N(Cc1nc2ccccc2n1Cc1ccccn1)C1CCCCC1 [compound 7] | 125 |
| CC(C)(C)OC(=O)n1c(CCl)nc2ccccc21 [compound 8] | 91 |
| N#CCn1c(CN2CCOCC2)nc2ccccc21 [compound 9] | 63 |
| CC(C)N(Cc1nc2ccccc2n1Cc1c2ccccc2nc2ccccc12)C1CCCCC1 [compound 10] | 59 |
| COC(=O)c1ccc2nc(CN3CCOCC3)n(Cc3nc4ccccc4[nH]3)c2c1 [compound 11] | 39 |
| CC(C)N(Cc1nc2ccccc2n1Cc1cccc(Oc2ccccc2)c1)C1CCCCC1 [compound 12] | 51 |
| CC(C)N(Cc1nc2ccccc2n1Cc1ccc(S(C)(=O)=O)cc1)C1CCCCC1 [compound 13] | 111 |
| CSc1ccc(Cn2c(CN(C(C)C)C3CCCCC3)nc3ccccc32)cc1 [compound 14] | 19 |
| CCCN(Cc1nc2ccccc2n1Cc1ccc2ccccc2n1)CC1CC1 [compound 20] | 15.38 |
| CCCN(Cc1nc2ccccc2n1Cc1csc(C)n1)CC1CC1 [compound 21] | 23.36 |
| CCCN(Cc1nc2ccccc2n1Cc1ccc(Cl)cc1Cl)CC1CC1 [compound 22] | 11.11 |
| CCCN(Cc1nc2ccccc2n1Cc1c2ccccc2nc2ccccc12)CC1CC1 [compound 23] | 56 |
| CCCN(Cc1nc2ccccc2n1Cc1cc(F)cc2c1OCOC2)CC1CC1 [compound 24] | 96 |
| CCCN(Cc1nc2ccccc2n1Cc1cccc(Oc2ccccc2)c1)CC1CC1 [compound 25] | 56 |
| CCCN(Cc1nc2ccccc2n1Cc1ccc(S(C)(=O)=O)cc1)CC1CC1 [compound 26] | 83 |
| CCCN(Cc1nc2ccccc2n1Cc1ccccn1)CC1CC1 [compound 27] | 179 |

| Compound | Selective Index |
| --- | --- |
| Cc1nc(Cn2c(CN(Cc3ccccc3)C(C)C)nc3ccccc32)cs1 [compound 40] | 13.44 |
| CC(C)N(Cc1ccccc1)Cc1nc2ccccc2n1Cc1ccccn1 [compound 41] | 85 |
| c1ccc2nc(Cn3c(CN4CCCCC4)nc4ccccc43)ccc2c1 [compound 50] | 14.04 |
| Cc1nc(Cn2c(CN3CCCCC3)nc3ccccc32)cs1 [compound 51] | 24.39 |
| c1ccc(-c2ccc(Cn3c(CN4CCCCC4)nc4ccccc43)cc2)cc1 [compound 52] | 11.31 |
| Cc1ccccc1C(=O)n1c(CN2CCCCC2)nc2ccccc21 [compound 53] | 12.99 |
| O=[N+]([O-])c1ccc(Cn2c(CN3CCCCC3)nc3ccccc32)o1 [compound 54] | 83 |
| Clc1ccc(Cn2c(CN3CCCCC3)nc3ccccc32)c(Cl)c1 [compound 55] | 12.2 |
| c1ccc(Cn2c(CN3CCCCC3)nc3ccccc32)nc1 [compound 56] | 50 |
| c1cncc(Cn2c(CN3CCCCC3)nc3ccccc32)c1 [compound 57] | 59 |
| c1ccc2c(c1)nc(CN1CCCCC1)n2Cc1ccncc1 [compound 58] | 77 |
| Fc1cc2c(c(Cn3c(CN4CCCCC4)nc4ccccc43)c1)OCOC2 [compound 59] | 71 |
| CS(=O)(=O)c1ccc(Cn2c(CN3CCCCC3)nc3ccccc32)cc1 [compound 60] | 67 |
| CSc1ccc(Cn2c(CN3CCCCC3)nc3ccccc32)cc1 [compound 61] | 15 |
| FC(F)(F)Oc1ccccc1Cn1c(CN2CCCCC2)nc2ccccc21 [compound 62] | 26 |
| c1cncc(Cn2c(CN3CCCCC3)nc3ccccc32)c1 [compound 70] | 270 |
| c1ccc2c(c1)nc(CN1CCCCC1)n2Cc1ccncc1 [compound 71] | 63 |
| c1ccc2c(Cn3c(CN4CCCCC4)nc4ccccc43)c3ccccc3nc2c1 [compound 72] | 149 |
| Fc1cc2c(c(Cn3c(CN4CCCCC4)nc4ccccc43)c1)OCOC2 [compound 73] | 56 |
| c1ccc(Oc2cccc(Cn3c(CN4CCCCC4)nc4ccccc43)c2)cc1 [compound 74] | 7 |
| FC(F)(F)Oc1ccccc1Cn1c(CN2CCCCC2)nc2ccccc21 [compound 75] | 26 |
| CSc1ccc(Cn2c(CN3CCCCC3)nc3ccccc32)cc1 [compound 76] | 6 |

| Compound | Selective Index |
| --- | --- |
| O=[N+]([O-])c1ccc(Cn2c(CN3CCCCC3)nc3ccccc32)o1 [compound 77] | 67 |
| c1ccc(Cn2c(CN3CCCCC3)nc3ccccc32)cc1 [compound 78] | 24 |
| c1ccc2[nH]c(Cn3c(CN4CCCCC4)nc4ccccc43)nc2c1 [compound 79] | 5000 |
| CN1CCC(N(C)Cc2nc3ccccc3n2Cc2nc3ccccc3[nH]2)CC1 [compound 80] | 7.3 |
| CCN(Cc1nc2ccccc2n1Cc1nc2ccccc2[nH]1)C(C)C [compound 81] | 450 |
| CC(C)N(C)Cc1nc2ccccc2n1Cc1nc2ccccc2[nH]1 [compound 82] | 1388.9 |
| C=CCN(C)Cc1nc2ccccc2n1Cc1nc2ccccc2[nH]1 [compound 83] | 305.3 |
| CN(C)CCN(C)Cc1nc2ccccc2n1Cc1nc2ccccc2[nH]1 [compound 84] | 55.6 |
| CN(Cc1ccco1)Cc1nc2ccccc2n1Cc1nc2ccccc2[nH]1 [compound 85] | 217.4 |
| CC(c1ccccc1)N(C)Cc1nc2ccccc2n1Cc1nc2ccccc2[nH]1 (stereo not shown) [compound 86] | 151.2 |
| CC(C)CCN(CCC(C)C)Cc1nc2ccccc2n1Cc1nc2ccccc2[nH]1 [compound 87] | 666.7 |
| CCCCCCN(C)Cc1nc2ccccc2n1Cc1nc2ccccc2[nH]1 [compound 88] | 666.7 |
| C=C(C)CN(CC)Cc1nc2ccccc2n1Cc1nc2ccccc2[nH]1 [compound 89] | 1470.6 |
| C#CCN(C)Cc1nc2ccccc2n1Cc1nc2ccccc2[nH]1 [compound 90] | 322.6 |
| CCCCCN(C)Cc1nc2ccccc2n1Cc1nc2ccccc2[nH]1 [compound 91] | 470.6 |
| CCCCN(CC)Cc1nc2ccccc2n1Cc1nc2ccccc2[nH]1 [compound 92] | 715.8 |
| CN(C)CCN(Cc1ccccc1)Cc1nc2ccccc2n1Cc1nc2ccccc2[nH]1 [compound 93] | 185.2 |
| C#CCCN(C)Cc1nc2ccccc2n1Cc1nc2ccccc2[nH]1 [compound 94] | 12.3 |
| COC(=O)CN(C)Cc1nc2ccccc2n1Cc1nc2ccccc2[nH]1 [compound 95] | 12.8 |
| CCN(CCO)Cc1nc2ccccc2n1Cc1nc2ccccc2[nH]1 [compound 96] | 188.7 |
